Experimental findings from patent US20240270762A1, “PENICILLIN-BINDING PROTEIN INHIBITORS” (priority 2021, published 2024) are described below.

Protein sequences, listed by entry. Tags and fused reporters are not part of them. Residues count along the entry.
UniProt G3XD46, whole entry: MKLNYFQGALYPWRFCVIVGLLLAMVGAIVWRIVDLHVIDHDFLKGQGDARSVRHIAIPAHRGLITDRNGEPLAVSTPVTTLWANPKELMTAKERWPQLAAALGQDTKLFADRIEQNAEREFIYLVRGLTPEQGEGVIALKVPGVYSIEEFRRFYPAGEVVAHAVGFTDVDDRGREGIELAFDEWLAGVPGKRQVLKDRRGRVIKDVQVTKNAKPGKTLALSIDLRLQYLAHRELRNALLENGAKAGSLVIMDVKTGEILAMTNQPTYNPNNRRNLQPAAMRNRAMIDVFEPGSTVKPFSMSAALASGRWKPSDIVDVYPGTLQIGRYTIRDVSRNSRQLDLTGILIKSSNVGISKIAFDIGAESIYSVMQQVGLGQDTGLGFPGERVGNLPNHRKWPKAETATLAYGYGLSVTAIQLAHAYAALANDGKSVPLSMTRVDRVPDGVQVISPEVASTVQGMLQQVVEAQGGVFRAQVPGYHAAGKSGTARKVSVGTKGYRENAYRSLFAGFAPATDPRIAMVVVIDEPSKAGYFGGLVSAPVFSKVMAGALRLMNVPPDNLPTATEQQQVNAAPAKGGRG
UniProt A0ABX6CK25, 64-610 limits assumed: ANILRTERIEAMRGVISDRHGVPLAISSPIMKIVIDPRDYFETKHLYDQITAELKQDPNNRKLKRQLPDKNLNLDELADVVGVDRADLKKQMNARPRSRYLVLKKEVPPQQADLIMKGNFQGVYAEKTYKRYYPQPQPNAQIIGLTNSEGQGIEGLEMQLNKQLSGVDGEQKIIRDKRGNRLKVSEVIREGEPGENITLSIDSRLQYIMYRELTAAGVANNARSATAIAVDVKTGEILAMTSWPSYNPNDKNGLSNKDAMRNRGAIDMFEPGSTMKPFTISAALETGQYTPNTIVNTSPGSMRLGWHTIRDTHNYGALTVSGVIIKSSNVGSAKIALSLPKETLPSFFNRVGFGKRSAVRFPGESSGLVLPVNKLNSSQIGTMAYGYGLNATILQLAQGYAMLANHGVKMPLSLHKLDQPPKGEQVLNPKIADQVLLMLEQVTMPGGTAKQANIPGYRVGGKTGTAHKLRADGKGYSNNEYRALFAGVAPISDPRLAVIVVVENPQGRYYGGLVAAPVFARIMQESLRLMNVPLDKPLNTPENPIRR
UniProt A0ABX6CK30, 1-851: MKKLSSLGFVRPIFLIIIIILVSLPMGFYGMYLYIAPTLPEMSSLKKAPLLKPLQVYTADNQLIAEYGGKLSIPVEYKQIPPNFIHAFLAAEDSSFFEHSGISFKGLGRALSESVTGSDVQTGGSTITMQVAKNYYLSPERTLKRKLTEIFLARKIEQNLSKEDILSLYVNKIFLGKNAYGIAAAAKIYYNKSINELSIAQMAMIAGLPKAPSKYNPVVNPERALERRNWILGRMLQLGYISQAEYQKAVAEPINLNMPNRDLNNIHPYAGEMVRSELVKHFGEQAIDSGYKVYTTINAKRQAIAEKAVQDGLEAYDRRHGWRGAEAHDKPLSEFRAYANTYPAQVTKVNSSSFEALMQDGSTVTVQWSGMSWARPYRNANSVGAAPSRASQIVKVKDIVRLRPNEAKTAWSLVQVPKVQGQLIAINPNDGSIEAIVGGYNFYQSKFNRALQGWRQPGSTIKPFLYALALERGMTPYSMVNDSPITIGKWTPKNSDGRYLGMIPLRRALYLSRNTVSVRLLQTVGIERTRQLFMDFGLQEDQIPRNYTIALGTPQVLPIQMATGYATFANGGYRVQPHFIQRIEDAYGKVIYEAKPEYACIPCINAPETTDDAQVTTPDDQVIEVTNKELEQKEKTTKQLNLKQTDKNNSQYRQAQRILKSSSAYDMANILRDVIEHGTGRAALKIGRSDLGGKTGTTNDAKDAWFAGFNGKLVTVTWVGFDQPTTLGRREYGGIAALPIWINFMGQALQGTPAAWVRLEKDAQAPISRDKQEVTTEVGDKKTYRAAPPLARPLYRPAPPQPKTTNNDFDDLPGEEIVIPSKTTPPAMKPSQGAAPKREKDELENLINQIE
UniProt D0C8Z9, whole entry: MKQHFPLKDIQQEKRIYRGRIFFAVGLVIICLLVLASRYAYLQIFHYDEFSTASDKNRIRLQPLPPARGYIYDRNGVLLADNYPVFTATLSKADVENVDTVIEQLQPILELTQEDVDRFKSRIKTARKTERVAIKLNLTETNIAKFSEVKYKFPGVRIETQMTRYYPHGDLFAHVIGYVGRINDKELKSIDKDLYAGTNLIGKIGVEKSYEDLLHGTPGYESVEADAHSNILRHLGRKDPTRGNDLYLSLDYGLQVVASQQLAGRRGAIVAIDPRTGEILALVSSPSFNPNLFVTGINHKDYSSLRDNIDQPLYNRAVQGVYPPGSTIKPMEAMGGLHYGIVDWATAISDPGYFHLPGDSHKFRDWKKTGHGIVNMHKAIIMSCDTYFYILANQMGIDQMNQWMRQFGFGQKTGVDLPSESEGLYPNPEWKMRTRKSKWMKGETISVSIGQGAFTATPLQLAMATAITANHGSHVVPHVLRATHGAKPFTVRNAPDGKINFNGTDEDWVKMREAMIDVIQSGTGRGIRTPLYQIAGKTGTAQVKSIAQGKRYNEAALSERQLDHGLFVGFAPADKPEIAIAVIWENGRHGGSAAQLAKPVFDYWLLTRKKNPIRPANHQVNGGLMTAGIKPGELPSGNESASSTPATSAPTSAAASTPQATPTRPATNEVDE

Some results are limits rather than exact numbers.

Test [1] deals with PBP3 from Pseudomonas aeruginosa (PAO1) (Pseudomonas aeruginosa, UniProt G3XD46). As to the kind of experiment: Bocillin-FL fluorescence polarization competition binding, P. aeruginosa PBP3. The following applies: read-out: P. aeruginosa PBP3 Potency; Binding affinity to P. aeruginosa PBP3; fluorescence polarization competition binding assay using Bocillin-FL. The text has this: (§1) To determine the ability of boronic acid-based test PBP inhibitors to bind Penicillin Binding Proteins (PBPs), Bocillin-FL (fluorescently-labeled penicillin V; ThermoFisher Scientific) was used in a fluorescence polarization (FP) competition binding assay to assess inhibitor binding to PBP3 from Escherichia coli (K-12), PBP3 from Pseudomonas aeruginosa (PAO1), PBP1a and PBP3 from Acinetobacter baumannii (ATCC 19606), and PBP2 from Neisseria gonorrhoeae (FA19). PBPs were cloned and purified as described previously (E. coli PBP3, King, D. T, et al., ACS Infectious Diseases 2015, 1, 175-184; P. aeruginosa PBP3, Han et. al., PNAS 2010, 107 (51), 22002-22007; A. baumannii PBPs, Penwell et. al., Antimicrob. Agents Chemother. 2015, 59 (3), 1680-1689; N. gonorrhoeae PBP2, Singh et. al., J. Biol. Chem. 2019, 294 (38), 14020-14032). To establish assay conditions for competition binding, enzyme titration/saturation binding experiments were initially performed. […] FP was measured immediately upon mixing (Excitation, 490 nm; Emission, 520 nm; g-factor, 0.96), using a Cytation3 (BioTek) microplate reader and measured continuously for up to 120 minutes. […] For N. gonorrhoeae PBP2 assays, cefixime, ceftriaxone was mixed with Bocillin-FL, then enzyme was added, and the FP was immediately measured for up to 30 minutes. […]
For orientation: Polarisation of emitted light reports the rotation of a fluorescent probe.

For test [2], the target named is PBP3 from Acinetobacter baumannii (ATCC 19606) (Acinetobacter baumannii, UniProt A0ABX6CK25). Kind of test: Bocillin-FL fluorescence polarization competition binding, A. baumannii PBP3. The following applies: fluorescence polarization competition binding assay using Bocillin-FL.
Source text: as §1

Another test concerns the target A. baumannii PBP1a (Acinetobacter baumannii, UniProt A0ABX6CK30). As to the kind of experiment: Bocillin-FL competition binding via gel filtration, A. baumannii PBP1a. The following applies: read-out: A. baumannii PBP1a Potency; competition binding assay using Bocillin-FL via gel filtration. (In gel filtration, larger molecules generally elute earlier.)
In the next test the target is A. baumannii PBP2 (Acinetobacter baumannii, UniProt D0C8Z9). As to the kind of experiment: Bocillin-FL competition binding via gel filtration, A. baumannii PBP2. The following applies: read-out: A. baumannii PBP2 Potency; competition binding assay using Bocillin-FL via gel filtration. As for the experimental part: Affinity to A. baumannii PBP1a and PBP2 was assessed a competitive equilibrium binding assay using Bocillin-FL as the reporter molecule. Enzyme was pre-incubated with increasing concentrations of inhibitors, prior to addition of Bocillin and further incubation for 15 minutes. PBP bound with Bocillin-FL was separated by gel filtration using 96-well Zeba Spin size exclusion plates, and the fluorescence measured. The inhibitor affinity (reported as the EC50) was determined by plotting the fraction of PBP bound with Bocillin-FL at each inhibitor concentration against the inhibitor concentration, and fitting the data to the following equation:
[formula] • where y is the fraction bound at a given inhibitor concentration, ymin is the fraction bound when the enzyme is completely inactivated, ymax is the maximum (uninhibited) fraction bound, n is the Hill coefficient, and x is the inhibitor concentration.

For the next test, the system named is A. baumannii 1258916. Kind of test: Broth microdilution MIC in iron-depleted CAMHB (IDM).
For a further test, the system named is A. baumannii ATCC 17978. Described as above.
The subject of another test is A. baumannii ATCC 19606. The test is described as above.
In a further test the test system is A. baumannii CDC-0033. The description is as above.
For a further test, the system named is A. baumannii CDC-0036. The description is as above.
Another test has as its system A. baumannii CDC-0045. Described as above.
Test [3] deals with B. humptydooensis ATCC BAA-2767. Described as above.
Test [4] has as its system B. thailandensis ATCC 700388. The test is described as above.
Test [5] relates to P. aeruginosa (ΔmexAB-oprM). Described as above. The following applies: ΔmexAB-oprM (efflux pump-compromised).
For a further test, the system named is P. aeruginosa ATCC 27853. The test is described as above.
The test system of another test is P. aeruginosa ATCC 35151. The description is as above. The following applies: ATCC 35151 (hyper-permeable).
The subject of another test is P. aeruginosa CDC-0054. Described as above.
The test system of another test is P. aeruginosa CDC-0090. Described as above.
The subject of a further test is P. aeruginosa CDC-0095. The test is described as above.
In the next test the test system is P. aeruginosa CDC-0110. The description is as above.

`O=C(NCCCS(=O)(=O)N1CCN(C(=O)N[C@@H](C(=O)N[C@H]2Cc3ccc(F)c(C(=O)O)c3OB2O)c2ccc(P(=O)(O)O)cc2)C1=O)c1ccc(O)c(O)c1Cl`: the IC50 in test [1] is 10 to 50 µM. Besides, the “A. baumannii PBP3 Potency” value in [2] was “D (D represents potency <10 μM)”. The EC50 at A. baumannii PBP1a and on A. baumannii PBP2 was 50 to 250 µM each time. Besides, in the test with A. baumannii 1258916, the “MIC, A. baumannii 1258916” value was “A (A represents an MIC≥128 μg/mL)”. Besides, in the test with A. baumannii ATCC 17978, the “MIC, A. baumannii ATCC 17978” value was “E (E represents an MIC≤1 μg/mL)”. The “MIC, A. baumannii ATCC 19606” value with A. baumannii ATCC 19606 was “E (E represents an MIC≤1 μg/mL)”. Further, in the test with A. baumannii CDC-0033, the “MIC, A. baumannii CDC-0033” value is given as “A (A represents an MIC≥128 μg/mL)”. In addition, the “MIC, A. baumannii CDC-0036” value in the test on A. baumannii CDC-0036 is recorded as “A (A represents an MIC≥128 μg/mL)”. In the test with A. baumannii CDC-0045, the “MIC, A. baumannii CDC-0045” value is on record as “A (A represents an MIC≥128 μg/mL)”. For the same molecule, the “Minimum inhibitory concentration (MIC), B. humptydooensis ATCC BAA-2767” value in [3] is reported as “A (A represents an MIC≥128 μg/mL)”. For the same molecule, the “Minimum inhibitory concentration (MIC), B. thailandensis ATCC 700388” value in test [4] is listed as “A (A represents an MIC≥128 μg/mL)”. In addition, the “Minimum inhibitory concentration, P. aeruginosa ΔmexAB-oprM” value in [5] was “A (A represents an MIC≥128 μg/mL)”. Besides, the “Minimum inhibitory concentration, P. aeruginosa ATCC 27853” value with P. aeruginosa ATCC 27853 was “A (A represents an MIC≥128 μg/mL)”. In the test on P. aeruginosa ATCC 35151, the “Minimum inhibitory concentration, P. aeruginosa ATCC 35151” value is given as “D (D represents an MIC from 2 to 4 μg/mL)”. Further, in the test on P. aeruginosa CDC-0054, the “Minimum inhibitory concentration, P. aeruginosa CDC-0054” value was “A (A represents an MIC≥128 μg/mL)”. In addition, in the test with P. aeruginosa CDC-0090, the “Minimum inhibitory concentration, P. aeruginosa CDC-0090” value was “A (A represents an MIC≥128 μg/mL)”. Further, the “Minimum inhibitory concentration, P. aeruginosa CDC-0095” value in the test on P. aeruginosa CDC-0095 was “A (A represents an MIC≥128 μg/mL)”. In the test with P. aeruginosa CDC-0110, the “Minimum inhibitory concentration, P. aeruginosa CDC-0110” value was “A (A represents an MIC≥128 μg/mL)”.
On to `O=C(O)c1c(F)ccc2c1OB(O)[C@@H](NC(=O)C(NC(=O)N1CCN(C3CCN(C(=O)Nc4cc(F)c(F)c(O)c4F)CC3)C1=O)c1cc(F)c(O)c(O)c1Cl)C2` (some centres unmarked), for which, in test [1], the IC50 is < 10 µM. Moreover, the “A. baumannii PBP3 Potency” value in [2] is given as “D (D represents potency <10 μM)”. The EC50 at A. baumannii PBP1a and on A. baumannii PBP2 was < 10 µM each time. For the same molecule, the “MIC, A. baumannii 1258916” value in the test on A. baumannii 1258916 is given as “E (E represents an MIC≤1 μg/mL)”. Also, the “MIC, A. baumannii ATCC 17978” value in the test on A. baumannii ATCC 17978 was “E (E represents an MIC≤1 μg/mL)”. For the same molecule, in the test on A. baumannii ATCC 19606, the “MIC, A. baumannii ATCC 19606” value is given as “E (E represents an MIC≤1 μg/mL)”. Also, in the test on A. baumannii CDC-0033, the “MIC, A. baumannii CDC-0033” value is reported as “D (D represents an MIC from 2 to 4 μg/mL)”. Further, in the test with A. baumannii CDC-0036, the “MIC, A. baumannii CDC-0036” value is recorded as “E (E represents an MIC≤1 μg/mL)”. Besides, the “MIC, A. baumannii CDC-0045” value in the test on A. baumannii CDC-0045 is “E (E represents an MIC≤1 μg/mL)”. The “Minimum inhibitory concentration (MIC), B. humptydooensis ATCC BAA-2767” value in test [3] is “E (E represents an MIC≤1 μg/mL)”. In addition, the “Minimum inhibitory concentration (MIC), B. thailandensis ATCC 700388” value in [4] is given as “E (E represents an MIC≤1 μg/mL)”. In addition, the “Minimum inhibitory concentration, P. aeruginosa ΔmexAB-oprM” value in [5] was “E (E represents an MIC≤1 μg/mL)”. The “Minimum inhibitory concentration, P. aeruginosa ATCC 27853” value with P. aeruginosa ATCC 27853 was “D (D represents an MIC from 2 to 4 μg/mL)”. Moreover, the “Minimum inhibitory concentration, P. aeruginosa ATCC 35151” value in the test on P. aeruginosa ATCC 35151 is “E (E represents an MIC≤1 μg/mL)”. Besides, the “Minimum inhibitory concentration, P. aeruginosa CDC-0054” value in the test with P. aeruginosa CDC-0054 is listed as “E (E represents an MIC≤1 μg/mL)”. Besides, the “Minimum inhibitory concentration, P. aeruginosa CDC-0090” value with P. aeruginosa CDC-0090 is on record as “D (D represents an MIC from 2 to 4 μg/mL)”. Moreover, in the test on P. aeruginosa CDC-0095, the “Minimum inhibitory concentration, P. aeruginosa CDC-0095” value is “C (C represents an MIC from 8 to 16 μg/mL)”. Moreover, the “Minimum inhibitory concentration, P. aeruginosa CDC-0110” value in the test on P. aeruginosa CDC-0110 is reported as “E (E represents an MIC≤1 μg/mL)”.
